Reference: PMC3948918 (PLoS ONE, 2014)

Experiments:
[1] = test system: OATP1B1-expressing RKO cells; settings: read-out: IC50 RKO B1; RKO stably transfected with OATP1B1; 1000 cells/well, 5% fetal bovine serum, 3 days exposure, sulforhodamine assay; average of at least three independent determinations in triplicate
[2] = test system: OATP1B3-expressing RKO cells; settings: read-out: IC50 RKO B3; RKO stably transfected with OATP1B3; 1000 cells/well, 5% fetal bovine serum, 3 days exposure, sulforhodamine assay; average of at least three independent determinations in triplicate
[3] = test system: OATP1B1- and OATP1B3-expressing HeLa or RKO cell lines; experiment: Cytotoxicity and transporter selectivity as summarised in the text
[4] = test system: RKO control cells; experiment: Cytotoxicity (sulforhodamine), RKO stably transfected with empty vector

Measured: IC50

C/C=C1/NC(=O)CC[C@H](C(=O)O)NC(=O)[C@@H](C)[C@H](/C=C/C(C)=C/[C@H](C)[C@H](Cc2ccccc2)OC)NC(=O)[C@H](CCCNC(=N)N)NC(=O)C[C@H](C(=O)O)NC(=O)[C@H](CCCNC(=N)N)NC(=O)[C@@H](C)NC1=O
> 100 nM: all assays above
